These results are taken from PMC7840908 (Communications Biology, 2021).

The target of test [1] is MERS-CoV macro domain (Middle East respiratory syndrome-related coronavirus, UniProt K9N638). Put plainly: Isothermal titration calorimetry (ITC), WT protein. The test is classed as binding.
Test [2] concerns the target T1, MERS-CoV macro domain I129F (Middle East respiratory syndrome-related coronavirus, UniProt K9N638, I1238F). Particulars: 308 K.
Test [3] deals with T1, MERS-CoV macro domain I129F.
Test [4] addresses T2, MERS-CoV macro domain G45V (Middle East respiratory syndrome-related coronavirus, UniProt K9N638, G1154V). Particulars: 308 K.
Test [5] has as its target T2, MERS-CoV macro domain G45V. The following applies: G45V compared with WT.

Usually Kd stands for the equilibrium constant for the complex coming apart. Low readings indicate higher affinity, high ones lower affinity. In test [1] (298 K), `Nc1ncnc2c1ncn2[C@@H]1O[C@H](COP(=O)(O)OP(=O)(O)O)[C@@H](O)[C@H]1O` [ADP, adenosine diphosphate] showed a Kd of 70.3 µM and a ΔG of -5.707 ± 0.294 kcal/mol.
As for `NC(=O)c1ccc[n+]([C@@H]2O[C@H](COP(=O)([O-])OP(=O)(O)OC[C@H]3O[C@@H](n4cnc5c(N)ncnc54)[C@H](O)[C@@H]3O)[C@@H](O)[C@H]2O)c1` [NAD, nicotinamide adenine dinucleotide], the ΔG in test [1] (308 K, WT) is -6.052 ± 0.0311 kcal/mol. Also, in test [2], the “Heat difference detected by ITC during titration” value is “no significant heat difference detected”. In addition, in test [3], the “Tm differences with various amounts of NAD, DSF” value is “no Tm changes”. In test [4], the “n (stoichiometry of binding)” value was found to be 1.31 ± 0.10, the ΔG was -5.425 ± 0.17 kcal/mol, the ΔH is -18.18 ± 9.916 kcal/mol and the “−TΔS” value was found to be 12.75 ± 9.919 kcal/mol. In test [5], the “Tm differences with various amounts of NAD, DSF” value is “fewer Tm differences”.
In test [1] (298 K), `Nc1ncnc2c1ncn2C1OC(COP(=O)(O)O)C(O)C1O` (stereo not drawn) [AMP, adenosine monophosphate] had a Kd of 191 µM and a ΔG of -5.093 ± 0.194 kcal/mol.
